# Laboratory results from PubChem BioAssay AID743201 (The Scripps Research Institute Molecular Screening Center, 2013).
# The entries are a selection whose mix differs from that of the whole data set. Calls of active or inactive are those of the source. Cut-off read from the data, not from the text of the source: active = inhibition above about 9.5%; inactive = the rest.
# Experiment: LD9 cell viability loss – luminescence, high throughput, cytotoxicity control for cell surface PrPc inhibitor project (AID 743201)
# Details: LD9 cells cytotoxicity, at 13.8 µM, active compounds read high
row,Compound,inhibition
1,Cc1c2c(nc3ccccc13)SC(C(Cl)Cl)C2 (configuration not stated),inactive: -7.69%
2,Cc1ccc2nc3c(c(C)c2c1)CC(C(Cl)Cl)S3 (configuration not stated),inactive: -0.73%
